Earlier results, collected in US20130344008A1, “NONCARIOUS MATERIAL AND ANTICARIOUS AGENT CONTAINING RARE SUGAR” (priority 2006, published 2013).

Conditions: cited from earlier work

Row | SMILES | sweetness level relative to the sweetness level of sucrose
1 | O=C(CO)[C@H](O)[C@H](O)[C@H](O)CO [D-psicose] | about 70%
2 | O=C[C@H](O)[C@H](O)[C@H](O)[C@H](O)CO [D-allose] | about 65%
3 | OC[C@@H](O)C(O)[C@H](O)CO [D-arabitol] | about 68%
